The assay addresses synthesized human Aβ42 peptide (human) (UniProt P05067).

Data on one substance can be found in article PMC6562043.

Take “mouse PrP^A116V (transgene of TgGSS and TgAD/GSS mice) (from UniProt P04925 23-230)”: the PrP bound to 70 pmol coated Aβ42 came to 4.1 pmol and the binding relative to mouse PrP^C, corrected for PrP expression came out at 10.8%.
